A mixed list of measured activities; the numbers were collected in NIAID ChemDB.

Common to all: whole-cell or culture tests; agent: HIV-1; method: MTT; measure: EC50

ECn is the concentration giving n% inhibition of infection, replication or growth. Rows are shuffled and stem from different studies. An empty or dashed field is not shown.

COc1cc2c(cc1OC)C1=NOC(c3ccccc3)C1C2 ; strain: IIIB ; cells: MT-4 ; value: >12.9 µM
O=C(O)/C=C/c1cn([C@@H]2O[C@H](CO)[C@@H](CO)[C@@H]2O)c(=O)[nH]c1=O ; cells: MT-4 ; value: >100 µM
CNc1nc(Nc2ccc(C#N)cc2)nc(Oc2ccc3ccccc3c2)c1C(C)C ; strain: IIIB ; mutations: WT ; cells: MT-4 ; value: 0.088 µM
CN(C)c1nc(Cl)cc(C(C#N)c2c(F)cccc2F)n1 ; strain: IIIB ; cells: MT-4 ; value: 2 µM
COc1cc([C@H]2OC[C@H]3[C@@H]2CO[C@@H]3c2ccc(O)c(OC)c2)ccc1O ; strain: IIIB ; cells: C8166 ; value: >200 µg/mL
O=C(c1ccccc1)n1c(=O)ccn([C@H]2C=CC3(CC2)O[C@H](c2ccccc2)[C@@H](c2ccccc2)O3)c1=O ; strain: NL4-3 ; cells: MT-4 ; value: >25 µg/mL
Cc1cc(C#N)cc(C)c1Oc1nc(NC2CCN(Cc3ccc(S(N)(=O)=O)cc3)CC2F)nc2ccsc12 ; strain: IIIB ; mutations: NNRTI-resistant (RT K103N) ; cells: MT-4 ; value: 0.00789 µM
C#Cc1ccc(Nc2nccc(Oc3c(C)cc(-c4cn(Cc5ccc(C(=O)OC)cc5)nn4)cc3C)n2)cc1 ; strain: RES056 ; cells: MT-4 ; value: ≥37.66 µM
O=c1[nH]c(=O)n([C@@H]2O[C@H](CO)[C@@H](CO)[C@@H]2O)cc1I ; cells: MT-4 ; value: >100 µM
COc1cc2c(cc1OC)C1=NOC(c3ccco3)C1C2 ; strain: IIIB ; cells: MT-4 ; value: >10.97 µM
Cc1ccnc2c1NC(=O)c1cccnc1N2C1CC1 ; mutations: EFV-resistant (K103R V179D P225H) ; cells: MT-4 ; value: 100 µM
Cc1cc(C)cc(S(=O)(=O)c2c(C(=O)NS(=O)(=O)C(F)(F)F)[nH]c3ccc(Cl)cc23)c1 ; mutations: K103N ; cells: MT-4 ; value: 21.56 µM
COc1cc(C(CO)C(O)c2cc(OC)c(O)c(OC)c2)ccc1O ; strain: IIIB ; cells: C8166 ; value: >200 µg/mL
O=c1ccn([C@@H]2O[C@H](CO)[C@H](CO)[C@@H]2O)c(=O)[nH]1 ; cells: MT-4 ; value: >100 µM
CCCS(=O)(=O)NC(=O)c1[nH]c2ccc(Cl)cc2c1S(=O)(=O)c1cc(C)cc(C)c1 ; mutations: E138K ; cells: MT-4 ; value: 0.92 µM
Cc1cn([C@H]2C[C@H](N=[N+]=[N-])[C@@H](CO)O2)c(=O)[nH]c1=O ; strain: IIIB ; cells: MT-4 ; value: 0.019 µM
Cc1cc(/C=C/C#N)cc(C)c1Oc1ccnc(Nc2ccc(CN3CCN(S(=O)(=O)N(C)C)CC3)cc2)n1 ; strain: RES056 ; cells: MT-4 ; value: >3.07 µM
COc1cc(C(=O)C(C)c2ccc(O)c(OC)c2)ccc1O ; strain: IIIB ; cells: C8166 ; value: 87.1 µg/mL
Cc1cn([C@H]2C[C@H](N=[N+]=[N-])[C@@H](CO)O2)c(=O)[nH]c1=O ; strain: RES056 ; cells: MT-4 ; value: 0.028 µM
Cc1cc(/C=C/C#N)cc(C)c1Oc1nc(NC2CCN(Cc3ccc(F)cc3)CC2)nc2ccsc12 ; strain: IIIB ; mutations: NNRTI-resistant (RT Y188L) ; cells: MT-4 ; value: 0.155 µM
COc1ccc(N(C)C(=O)[C@H](Cc2cc(F)cc(F)c2)NC(=O)CN2CCN(S(=O)(=O)c3ccccc3N)CC2=O)cc1 ; strain: IIIB ; cells: MT-4 ; value: 0.52 µM
Cc1cc(C)cc(S(=O)(=O)c2c(C(=O)NCCP(=O)(O)O)[nH]c3ccc(Cl)cc23)c1 ; strain: RES056 ; cells: MT-4 ; value: >265 µM
C/C=C/c1ccc2oc(-c3ccc(O)c(OC)c3)c(C)c2c1 ; strain: IIIB ; cells: C8166 ; value: 23.6 µg/mL
CCOCn1c(Cc2cccc(F)c2)c(CC)c(=O)[nH]c1=O ; strain: EFV-resistant (K103R V179D P225H) ; cells: MT-4 ; value: >100 µM
CCOCn1c(Sc2cccc(N)c2)cc(=O)[nH]c1=O ; strain: NL4-3 ; cells: MT-4 ; value: 0.4 µg/mL
CCc1c(NC)nc(Nc2ccc(C#N)cc2)nc1Oc1ccc2ccccc2c1Br ; strain: IIIB ; mutations: WT ; cells: MT-4 ; value: 0.024 µM
O=C(c1ccccc1)n1c(=O)ccn([C@@H]2C=C[C@@H](O)CC2)c1=O ; strain: NL4-3 ; cells: MT-4 ; value: >25 µg/mL
COc1ccc2c(c1)OCCC/C=C\CN(C[C@@H](O)[C@H](Cc1ccccc1)NC(=O)O[C@H]1CO[C@H]3OCC[C@H]31)S2(=O)=O ; strain: LAI ; cells: MT-2 ; value: 0.023 µM
Cc1cn([C@@H]2O[C@@H]3COC(O)[C@@H]3[C@@H]2O)c(=O)[nH]c1=O ; cells: MT-4 ; value: >100 µM
COc1cccc(OC)c1C(=O)c1nc(N(C)C)nc(OC)c1C ; strain: IIIB ; mutations: Y181C ; cells: MT-4 ; value: >8 µM
COc1cc(C[C@H]2COC[C@@H]2Cc2ccc(O)c(OC)c2)ccc1O ; strain: IIIB ; cells: C8166 ; value: >200 µg/mL
C#Cc1ccc(Nc2nccc(Oc3c(C)cc(-c4cn(CCc5cccs5)nn4)cc3C)n2)cc1 ; strain: IIIB ; mutations: E138K ; cells: MT-4 ; value: 0.61 µM
COc1cc2c(cc1OC)C1=NOC(c3cccs3)C1C2 ; strain: IIIB ; cells: MT-4 ; value: >11.73 µM
CCc1c(NC)nc(Nc2ccc(C#N)cc2)nc1Oc1ccc2cc(C#N)ccc2c1Br ; strain: IIIB ; mutations: K103N + Y181C ; cells: MT-4 ; value: 2.9 µM
O=C1C=C[C@@H](n2cnc3c(Cl)ncnc32)CC1 ; strain: NL4-3 ; cells: MT-4 ; value: >0.5 µg/mL
O=c1[nH]c(=O)n([C@@H]2O[C@H](CO)[C@H](CO)[C@@H]2O)cc1I ; cells: MT-4 ; value: >100 µM
COc1cc2c(cc1OC)C1=NOC(c3ccc(Cl)cc3)C1C2 ; strain: IIIB ; cells: MT-4 ; value: >12.1 µM
C#CCOCn1c(Cc2cccc(C(F)(F)F)c2)c(C(C)C)c(=O)[nH]c1=O ; strain: N119 (Y181C) ; cells: MT-4 ; value: 2.6 µM
O=c1[nH]c(=O)n([C@H]2C[C@H](CO)[C@@H](CO)O2)cc1I ; cells: MT-4 ; value: >100 µM
C#CCOCn1c(Cc2cc(F)ccc2F)c(CC)c(=O)[nH]c1=O ; strain: A17 ; mutations: K103N + Y181C ; cells: MT-4 ; value: 53 µM
COc1cc([C@H]2c3cc(O)c(OC)cc3C[C@@H](COC(C)=O)[C@@H]2COC(C)=O)ccc1O ; strain: IIIB ; cells: C8166 ; value: >200 µg/mL
COc1ccc2c(c1)OCCCCCN(C[C@@H](O)[C@H](Cc1ccccc1)NC(=O)O[C@H]1CO[C@H]3OCC[C@H]31)S2(=O)=O ; strain: LAI ; cells: MT-2 ; value: 0.095 µM
O=C(O)C(Cc1ccc(O)c(O)c1)OC(O)/C=C/C1=CC(O)C(O)C=C1 ; strain: IIIB ; cells: MT-4 ; value: >55 µM
C=CCOCn1c(Cc2cccc(C(F)(F)F)c2)c(CC)c(=O)[nH]c1=O ; strain: EFV-resistant (K103R V179D P225H) ; cells: MT-4 ; value: >77 µM
Clc1ncnc2ncn([C@@H]3C=CC4(CC3)O[C@H](c3ccccc3)[C@@H](c3ccccc3)O4)c12 ; strain: NL4-3 ; cells: MT-4 ; value: >2.4 µg/mL
CCc1c(Cl)nc(Nc2ccc(C#N)cc2)nc1Oc1ccc2cc(Br)ccc2c1Br ; strain: IIIB ; mutations: WT ; cells: MT-4 ; value: 17.11 µM
Cc1cc(C#N)cc(C)c1Oc1nc(NC2CCN(Cc3ccc(S(N)(=O)=O)cc3)CC2C(=O)O)nc2ccsc12 ; strain: IIIB ; mutations: NNRTI-resistant (RT E138K) ; cells: MT-4 ; value: 3.34 µM
CC(=O)c1ccc(-c2nc3ncc(Br)cc3[nH]2)cc1 ; strain: IIIB ; cells: MT-4 ; value: >28 µM
COc1cc(Cc2[nH]c(=S)[nH]c(=O)c2C(C)C)cc(OC)c1 ; strain: IIIB ; cells: MT-4 ; value: >100 µM
CCc1c(NC)nc(Nc2ccc(C#N)cc2)nc1Oc1ccc2cc(Br)ccc2c1Br ; strain: IIIB ; mutations: K103N + Y181C ; cells: MT-4 ; value: 3.06 µM
COc1cc(C(C#N)c2c(F)cccc2F)nc(N(C)C)n1 ; strain: IIIB ; mutations: Y181C ; cells: MT-4 ; value: >40 µM
COc1cc([C@H]2OC[C@H]3[C@@H]2CO[C@@H]3c2cc(OC)c(O)c(OC)c2)cc(OC)c1O ; strain: IIIB ; cells: C8166 ; value: 83.5 µg/mL
CCc1c(Cc2ccccc2)n(COCCOc2ccccc2)c(=O)[nH]c1=O ; strain: IIIB ; cells: MT-4 ; value: 0.07 µM
CCOCn1c(Sc2cccc(Cl)c2)cc(=O)[nH]c1=O ; strain: NL4-3 ; cells: MT-4 ; value: 0.015 µg/mL
Nc1c(N=Cc2ccc(C(F)(F)F)c([N+](=O)[O-])c2)cc2cccnc2c1Cl ; strain: IIIB ; cells: MT-4 ; value: 20 µM
Cc1cn([C@H]2C[C@H](N=[N+]=[N-])[C@@H](CO)O2)c(=O)[nH]c1=O ; strain: IIIB ; cells: C8166 ; value: 0.00135 µg/mL
Cc1c(Cl)nc(N(C)C)nc1C(C#N)c1c(F)cccc1F ; strain: IIIB ; mutations: K103N + Y181C ; cells: MT-4 ; value: >34 µM
CCOCn1c(Cc2cccc(F)c2)c(C(C)C)c(=O)[nH]c1=O ; strain: A17 ; mutations: K103N + Y181C ; cells: MT-4 ; value: 42 µM
CCOC(=O)c1ccc(CN2CCC(Nc3nc(Oc4c(C)cc(C#N)cc4C)c4ccsc4n3)CC2)cc1 ; strain: IIIB ; mutations: NNRTI-resistant (RT F227L V106A) ; cells: MT-4 ; value: 3.68 µM
CCOCn1c(Cc2ccccc2)c(C(C)C)c(=O)[nH]c1=O ; strain: IIIB ; cells: MT-4 ; value: 0.03 µM
Cc1cc(/C=C/C#N)cc(C)c1Oc1nc(NC2CCN(Cc3cccnc3)CC2)nc2ccsc12 ; strain: IIIB ; mutations: NNRTI-resistant (RT K103N) ; cells: MT-4 ; value: 0.00443 µM
COc1nc(N(C)C)nc(C(=O)c2c(F)cccc2F)c1C ; strain: IIIB ; mutations: EFV-resistant (K103R V179D P225H) ; cells: C8166 ; value: >20 µM
Cc1cc(C)cc(S(=O)(=O)c2c(C(=O)NS(=O)(=O)c3ccc(F)cc3)[nH]c3ccc(Cl)cc23)c1 ; mutations: Y188L ; cells: MT-4 ; value: >121 µM
Cc1cc(C#N)cc(C)c1Oc1nc(NC2CCN(Cc3ccc(S(C)(=O)=O)cc3)CC2)nc2sccc12 ; strain: RES056 ; cells: MT-4 ; value: 0.0423 µM
Cc1cc(C)cc(S(=O)(=O)c2c(C(=O)NS(=O)(=O)c3ccccc3)[nH]c3ccc(Cl)cc23)c1 ; mutations: Y188L ; cells: MT-4 ; value: >131 µM
Cc1cn([C@@H]2O[C@H](CO)[C@@H](C3SCN(C)CS3)[C@@H]2O)c(=O)[nH]c1=O ; cells: MT-4 ; value: >100 µM
Cc1c(Cl)nc(Nc2ccc(C#N)cc2)nc1Oc1ccc2ccccc2c1Br ; strain: IIIB ; mutations: K103N + Y181C ; cells: MT-4 ; value: 16.53 µM
COc1c(O)cc2ccc(=O)oc2c1-c1c(O)ccc2ccc(=O)oc12 ; mutations: EFV-resistant (K103R V179D P225H) ; cells: MT-4 ; value: 6.6 µM
Nc1ccn([C@H]2CC[C@@H](CO)O2)c(=O)n1 ; strain: IIIB ; cells: MT-4 ; value: 0.697 µg/mL
CCOCn1c(Cc2c(F)c(F)cc(F)c2F)c(CC)c(=O)[nH]c1=O ; strain: A17 ; mutations: K103N + Y181C ; cells: MT-4 ; value: 54 µM
CSC1=NC2(C[C@@H]2c2ccccc2)C(=O)N1C(C)=O ; strain: IIIB ; cells: MT-4 ; value: 4.9 µg/mL
COc1cc2c(cc1OC)C1=NOC(c3ccccc3Cl)C1C2 ; strain: IIIB ; cells: MT-4 ; value: >67.97 µM
COc1ccc(N(C)C(=O)[C@H](Cc2cc(F)cc(F)c2)NC(=O)CN2CCN(S(=O)(=O)c3ccc(F)cc3)CC2=O)cc1 ; strain: ROD ; cells: MT-4 ; value: 0.12 µM
Cc1ccnc2c1NC(=O)c1cccnc1N2C1CC1 ; strain: IIIB ; cells: MT-4 ; value: 0.15 µM
COc1ccc(C2ON=C3c4cc(OC)c(OC)cc4CC32)cc1OC ; strain: IIIB ; cells: MT-4 ; value: >11.73 µM
COc1ccc(N(C)C(=O)[C@H](Cc2cc(F)cc(F)c2)NC(=O)CN2CCN(S(=O)(=O)c3cccc(NC(C)=O)c3)CC2=O)cc1 ; strain: IIIB ; cells: MT-4 ; value: 0.21 µM
COC(=O)C[C@](O)(Cc1ccc(O)c(OC)c1)C(=O)OC ; strain: IIIB ; cells: C8166 ; value: >200 µg/mL

Repeating the first 7 entries:

| SMILES | strain | mutations | cells | value |
|---|---|---|---|---|
| COc1cc2c(cc1OC)C1=NOC(c3ccccc3)C1C2 | IIIB | - | MT-4 | >12.9 µM |
| O=C(O)/C=C/c1cn([C@@H]2O[C@H](CO)[C@@H](CO)[C@@H]2O)c(=O)[nH]c1=O | - | - | MT-4 | >100 µM |
| CNc1nc(Nc2ccc(C#N)cc2)nc(Oc2ccc3ccccc3c2)c1C(C)C | IIIB | WT | MT-4 | 0.088 µM |
| CN(C)c1nc(Cl)cc(C(C#N)c2c(F)cccc2F)n1 | IIIB | - | MT-4 | 2 µM |
| COc1cc([C@H]2OC[C@H]3[C@@H]2CO[C@@H]3c2ccc(O)c(OC)c2)ccc1O | IIIB | - | C8166 | >200 µg/mL |
| O=C(c1ccccc1)n1c(=O)ccn([C@H]2C=CC3(CC2)O[C@H](c2ccccc2)[C@@H](c2ccccc2)O3)c1=O | NL4-3 | - | MT-4 | >25 µg/mL |
| Cc1cc(C#N)cc(C)c1Oc1nc(NC2CCN(Cc3ccc(S(N)(=O)=O)cc3)CC2F)nc2ccsc12 | IIIB | NNRTI-resistant (RT K103N) | MT-4 | 0.00789 µM |